Measurements reported in PubChem BioAssay AID504761 (Drosophila RNAi Screening Center, 2011)
Aim: 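Insect host genes that dengue virus relies on to spread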 (primary screen). Cells: D.Mel-2 cells from Drosophila. Knock-down reagent: long dsRNA against Drosophila genes. Conditions: infection with dengue virus type 2; dose and infection time not stated. Measured: 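Cells stained for dengue envelope protein and imaged; percent of infected cells per well on duplicate plates, ranked by infection, with stained nuclei counted for cell number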. Reading the numbers: infection score: higher = more virus-infected cells; cell count: higher = more cells in the well. Rule for the call: 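Low infection ranks in the two replicates (chance level up to 0.065) followed by a retest with a 1.5-fold or larger significant decrease, p below 0.05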. Calls: active = confirmed: knock-down lowers infection; inactive = not picked or not confirmed.
The deposit covers about 22,000 reagents; this is an unselected part of those that have a named target and a result. In the full data, 116 (0.52%) got an active call. 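Calls depend on retest data that are not deposited; infection was ranked per plate without normalising between plates; the unit of the infection score is not given.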 Raw values are not corrected between plates. Unmarked entries are inactive. A plus sign joins genes that one reagent is predicted to hit. Not all columns of the deposit are shown. Not stated in the record: the amount of reagent, the time to read-out.

gene | amplicon | infection score, replicate 1 | infection score, replicate 2 | cell count, replicate 1
CG15715 | DRSC10216 | 0.56 | 0.81 | 6117
CG15715 | DRSC25332 | 10.8 | 11.9 | 6523
inaE | DRSC19376 | 5.8 | 12.8 | 1913
inaE | DRSC19377 | 11.7 | 14.7 | 6854
inaE | DRSC19379 | 0.54 | 13.2 | 6905
inaE | DRSC26883 | 12 | 7.84 | 6731
l(2)gl | DRSC00825 | 11.5 | 1.48 | 6250
CG4133 | DRSC23122 | 3.22 | 1.55 | 6343
CG5662 | DRSC19957 | 3.25 | 1.25 | 6889
Bet1 | DRSC10088 | 2.07 | 3.73 | 6583
CG4025 | DRSC18523 | 2.55 | 15.7 | 6306
wde | DRSC05955 | 3.64 | 3.45 | 6314
Pvf1 | DRSC20024 | 1.36 | 2.85 | 6841
FASN1 | DRSC00268 | 5.27 | 2.77 | 2447
FASN1 | DRSC26498 | 1.15 | 1.28 | 1301
Pkc53E | DRSC07510 | 7.72 | 9.69 | 6815
mesh | DRSC14472 | 2.66 | 11.6 | 6342
mesh | DRSC15098 | 4.17 | 5.84 | 6617
mesh | DRSC15099 | 8.88 | 0.63 | 6395
Svip | DRSC08982 | 3.56 | 3.41 | 6315
Svip | DRSC28597 | 9.27 | 8 | 3872
CG8414 | DRSC07168 | 2.42 | 15 | 6933
DIP2 | DRSC08582 | 10.9 | 13.4 | 6174
CG13058 | DRSC09941 | 1.26 | 5.16 | 5862
CG13058 | DRSC27898 | 9.18 | 28.2 | 6516
dysc | DRSC10273 | 5.51 | 3.38 | 6747
dysc | DRSC11040 | 2.09 | 2.75 | 6280
dysc | DRSC22334 | 4.43 | 20 | 6273
dysc | DRSC22824 | 1.03 | 1.79 | 5635
dysc | DRSC26188 | 16 | 2.76 | 4578
HDAC4 | DRSC19780 | 7.99 | 4.07 | 6672
HDAC4 | DRSC25237 | 1.26 | 6.24 | 6529
Bili | DRSC14405 | 1.59 | 2.66 | 6146
ome | DRSC09322 | 4.45 | 8.67 | 4427
ome | DRSC10282 | 0.63 | 1 | 6352
ome | DRSC11380 | 1.85 | 2.31 | 6167
Oatp33Ea | DRSC02859 | 15.3 | 16.8 | 6403
Oatp33Ea | DRSC26461 | 5.28 | 5.68 | 6633
Tm1 | DRSC13082 | 4.59 | 0.77 | 6140
Tm1 | DRSC13083 | 2.12 | 3.83 | 5991
Tm1 | DRSC16886 | 20.6 | 8.27 | 3635
Tm1 | DRSC25249 | 1.53 | 2.85 | 6476
Tsp42Ec | DRSC06192 | 7.09 | 10.1 | 4092
Tsp42Ec | DRSC26768 | 2.93 | 8.15 | 6510
tomboy40 | DRSC04918 | 34.7 | 25.5 | 6102
tomboy40 | DRSC28442 | – | 32.4 | 309
CG8476 | DRSC16426 | 2.31 | 5.97 | 6939
CG8476 | DRSC27865 | 11.1 | 1.37 | 6235
Rab9Db + Rab9D + Rab9E | DRSC17656 | 1 | 2.32 | 5917
sona | DRSC04089 | 5.07 | 5.24 | 6720
sona | DRSC04574 | 21.8 | 23.5 | 5364
sona | DRSC04575 | – | 12 | 485
stops | DRSC15095 | 5.87 | 9.62 | 6252
stops | DRSC15096 | 1.73 | 6.26 | 6018
stops | DRSC15097 | 5.09 | 11.8 | 6509
CG5171 | DRSC02823 | 9.12 | 2.69 | 5779
CG5171 | DRSC28092 | 20.1 | 7 | 5574
CG7142 | DRSC16204 | 2.47 | 2.98 | 6889
CG7142 | DRSC26968 | 19.2 | 10.8 | 5757
CG13373 | DRSC27059 | 3.83 | 5.08 | 6665
CG12239 | DRSC17832 | 7.4 | 5.27 | 6084
CG12239 | DRSC27969 | 6.68 | 17.7 | 6358
E(spl)m7-HLH | DRSC16696 | 14.3 | 1.49 | 5917
E(spl)m7-HLH | DRSC29451 | 17.8 | 11.2 | 5486
CG14632 (retired record) | DRSC17942 | 3.28 | 0.21 | 6340
CG14632 (retired record) | DRSC25845 | 1.57 | 1.62 | 6386
sev | DRSC20372 | 7.07 | 5.8 | 6899
CG13168 | DRSC06295 | 14.7 | 6.08 | 5755
CG12057 | DRSC17797 | 36.5 | 27.9 | 5701
H | DRSC16692 | 4.04 | 1.12 | 6913
H | DRSC26618 | 2.9 | 2.72 | 5965
Hml | DRSC11183 | 2.31 | 0.91 | 5248
U2af50 | DRSC20297 | 5.44 | 7.19 | 4470
U2af50 | DRSC22867 | 4.59 | 6.62 | 5620

Ordered by “cell count, replicate 1” (lowest first): 10 of the entries above.
gene | amplicon | infection score, replicate 1 | infection score, replicate 2 | cell count, replicate 1
Tm1 | DRSC16886 | 20.6 | 8.27 | 3635
Tsp42Ec | DRSC06192 | 7.09 | 10.1 | 4092
Tm1 | DRSC13083 | 2.12 | 3.83 | 5991
Tm1 | DRSC13082 | 4.59 | 0.77 | 6140
ome | DRSC11380 | 1.85 | 2.31 | 6167
ome | DRSC10282 | 0.63 | 1 | 6352
Oatp33Ea | DRSC02859 | 15.3 | 16.8 | 6403
Tm1 | DRSC25249 | 1.53 | 2.85 | 6476
Tsp42Ec | DRSC26768 | 2.93 | 8.15 | 6510
Oatp33Ea | DRSC26461 | 5.28 | 5.68 | 6633
